Anti-infective test results gathered from many reports (values: NIAID ChemDB through PubChem).

Common to all: tests in culture; organism: Hepatitis B virus; cell line: HepAD38; method: PCR; read-out: EC50

Neighbouring rows are from separate reports. a–b is a range or a potency band. ECn is the concentration giving n% inhibition of infection, replication or growth. An empty or dashed field is not shown.

structure | strain | result
Cc1cc(NC(=O)c2c3c(C)c(C)[nH]c(=O)c3c(C)n2C)ccc1F | - | 0.5–1 µM
Cc1cc(NC(=O)c2c3c(cn2C)S(=O)(=O)N[C@H]2CN(C(=O)C(=O)NC(C)C)C[C@H]2CO3)ccc1F | - | <0.5 µM
Cn1cc2c(c1C(=O)Nc1ccc(F)c(C(F)F)c1)OC[C@@]1(CCN(C(=O)C(=O)NCC(F)(F)F)C1)NS2(=O)=O | Genotype D | <0.5 µM
Cn1nc2cc(NS(=O)(=O)c3cnn(C4CCNC4)c3)ccc2c1C(=O)Nc1ccc(F)c(Cl)c1 | - | <100 µM
C=C1c2c(c(C)n(C)c2C(=O)Nc2ccc(F)c(C)c2)C(=O)NC1C | - | 0.5–1 µM
Cc1cc(NC(=O)c2c3c(cn2C)S(=O)(=O)NC2CN(C(=O)C(=O)N4CC(F)(F)C4)CCC2CO3)ccc1F | - | <0.5 µM
C[C@@H](NC(=O)C(=O)N1CCC2(COc3c(c(Cl)n(C)c3C(=O)Nc3ccc(F)c(C(F)F)c3)S(=O)(=O)N2)C1)C(F)(F)F | Genotype D | <0.5 µM
Cn1nc2cc(NS(=O)(=O)c3cnn(-c4cccc(N)n4)c3)ccc2c1C(=O)Nc1ccc(F)c(Cl)c1 | - | <100 µM
CN(C)C(=O)C(=O)N1CC2COc3c(cn(C)c3C(=O)Nc3cc(F)c(F)c(F)c3)S(=O)(=O)NC2C1 | - | <0.5 µM
Cn1nc2cc(NS(=O)(=O)c3ccn(-c4cccc(N)n4)n3)ccc2c1C(=O)Nc1ccc(F)c(Cl)c1 | - | 100–1000 µM
Cc1cc(NC(=O)c2c3c(cn2C)S(=O)(=O)NC2CN(C(=O)C(=O)N[C@@H](C)C(F)(F)F)CCC2CO3)ccc1F | - | <0.5 µM
Cc1cc(NC(=O)c2c3c(c(C)n2C)C(=O)NC(C)(C)CC3)ccc1F | - | <0.05 µM
C[C@@H](NC(=O)C(=O)N1CC[C@]2(COc3c(cn(C)c3C(=O)Nc3ccc(F)c(Cl)c3)S(=O)(=O)N2)C1)C(F)(F)F | Genotype D | <0.5 µM
CN(C)c1ccc(-n2cc(S(=O)(=O)Nc3ccc4c(C(=O)Nc5ccc(F)c(Cl)c5)n(C)nc4c3)cn2)cn1 | - | 100–1000 µM
C[C@@H](NC(=O)C(=O)N1CC2(COc3c(c(Cl)n(C)c3C(=O)Nc3ccc(F)c(C(F)F)c3)S(=O)(=O)N2)C1)C(F)(F)F | Genotype D | <0.5 µM
Cc1cc(NC(=O)c2c3c(cn2C)S(=O)(=O)NC2CN(C(=O)C(=O)N[C@H](C)C(F)(F)F)CCC2CO3)ccc1F | - | <0.5 µM
Cn1cc2c(c1C(=O)Nc1ccc(F)c(Cl)c1)OC[C@]1(CCN(C(=O)C(=O)NC(C)(C)C(F)(F)F)C1)NS2(=O)=O | Genotype D | <0.5 µM
Cc1c2c(c(C(=O)Nc3ccc(F)c(F)c3)n1C)CCC(C)NC2=O | - | 0.5–1 µM

Again, the opening 2 rows:

structure	strain	result
Cc1cc(NC(=O)c2c3c(C)c(C)[nH]c(=O)c3c(C)n2C)ccc1F	-	0.5–1 µM
Cc1cc(NC(=O)c2c3c(cn2C)S(=O)(=O)N[C@H]2CN(C(=O)C(=O)NC(C)C)C[C@H]2CO3)ccc1F	-	<0.5 µM